Measured values reported in paper PMC3511567.
Construct, isoform or probe ends are uncertain for at least one entry.

System: YhcR-His (Staphylococcus aureus)
Experiment: EMSA
Details: YhcR 1-6 uM, competed by 100-fold unlabeled probe, poly(dI-dC), EMSA: 20 ul, 0.2 pmol DIG-DNA, 25 mM NaH2PO4 pH 8.0, 50 mM NaCl, 2 mM MgCl2, 1 mM DTT, 10% glycerol, room temperature 25 min, recombinant protein, residues 1-207, protein details: C-terminal His (pET24b NdeI/XhoI, implied), label: digoxigenin (DIG-ddUTP, terminal transferase), probe letters rebuilt from the primers and the genome

Sequence	binding result (two shifted bands)	binding result (dose-dependent)
TATGAGTTATCTATTTAGTTGCCAAAGATAAAATAATAATGTTTAATAACATCATATAGAGTATGTTAGTTTTAAATGTCGAATATACGAATGTGCAAACAAAGTAATCGGTAGAAATTCAACATACATAGCGCCGTTTACTGTTAAGTATTCACATTACAGATGAAAAATATAAAATTCTACATAATCAAGACCATGATGTGTACTTGTTTAACTTATGACTCTATTTGTTTAACAATTGCGATAATGGTCTTTTTATTTTATGCGTATCATTCGTCATATTTTTTATGAGGAAGGAGAAATGATTATGTT (double strand) [PopuC (opuCA upstream region, 312 bp)]	binds	–
CATCTGAACCAATAATAATCGCCATAATAAGACTCCTTTTTACTTTAATTTTGAAATACCTTTCTTAAAATGTGACATATTTATTTGTAGGTTATGAAAATCTTGAGAAAAGGCTTTCAATTTGATTACGTTTAAATTATAAACATAAACAAACAATAAATCAACATAATATGTTTATAATATGTTTGTTTATGACGTATTTTCAAACAATAAGTGAACATTCATATTGTGGTGTTGTTTTAATTAGGTATTCGTCTGAAATTGTAGTAAAACTTTGTCGAGGTTCCCGTTGACATAAATTTGCATAAAAAATAGCCCATAAATGAATGCAAATTCACATTCACTTATGAGCATATAGATACATATTTTAACAATGCAGTTATACTTTTAA (double strand) [Plac (lacA upstream region, 397 bp)]	–	binds
